A mixed list of measured activities; the numbers were collected in NIAID ChemDB.

All rows: growth or infection tests; agent: HIV-2

ECn is the concentration giving n% inhibition of infection, replication or growth. Percent inhibition refers to the dose given; in toxicity tests it is the harm to the cells. Conditions beyond the fields shown may differ between rows. An empty or dashed field is not shown.

compound | strain | cells | method | read-out | dose | value
Clc1ccc(CSc2ccccn2)cc1 | ROD | CEM | syncytia | EC50 |  | ≥0.8 µg/mL
O=C(Nc1sccc1S(=O)(=O)c1ccc(Cl)cc1)C(F)(F)F | ROD | CEM + CEM/O | cytopathic effect / MTT | EC50 |  | >8 µg/mL
C[n+]1cn(-c2cn(CCP(=O)(O)O)nn2)c(=O)[nH]c1=O | ROD | CEM |  | inhibition | 100 µM | 0%
O=C1[C@@H](Cc2ccccc2)NC(=S)N1Cc1ccccc1 |  | MT-4 | cytopathic effect / XTT | inhibition | 1 µg/mL | 35%
COC(=O)[C@H](C)NP(=O)(OC[C@@H]1C=C[C@H](n2cc(C)c(=O)[nH]c2=O)O1)Oc1ccccc1 | ROD | CEM + CEM/O |  | EC50 |  | 0.102 µM
Cc1ccc(S(=O)(=O)c2ccsc2NC(=O)c2ccccc2)cc1 | ROD | CEM + CEM/O | cytopathic effect / MTT | EC50 |  | >40 µg/mL
CCCCCCCCCC(=O)Oc1ccc(COP(=O)(OCCC#N)OP(=O)(O)OC[C@@H]2C=C[C@H](n3cc(C)c(=O)[nH]c3=O)O2)cc1 | ROD | CEM/TK- | syncytia / microscopy | EC50 |  | 2.8 µM
Nc1ncnc2c1ncn2Cc1cn(C(O)CP(=O)(O)O)nn1 | ROD | CEM |  | inhibition | 100 µM | 0%
O=C1[C@@H](Cc2ccccc2)NC(=S)N1c1ccccc1 |  | MT-4 | RT activity | inhibition | 1 µg/mL | 33%
CCCCC(=O)Oc1ccc(COP(=O)(OCc2ccc(OC(=O)CCCC)cc2)OP(=O)(O)OC[C@@H]2C=C[C@H](n3cc(C)c(=O)[nH]c3=O)O2)cc1 | ROD | CEM/TK- | syncytia / microscopy | EC50 |  | 15 µM
CC(=O)NC1C=CN(c2cn(C(O)CCCP(=O)(O)O)nn2)C(=O)N1 | ROD | CEM |  | inhibition | 100 µM | 0%
CCOc1ccccc1CCNC(=S)Nc1nccs1 |  | MT-4 | cytopathic effect / XTT | inhibition | 10 µg/mL | 91%
Nc1nc2c(ccn2[C@H]2C=C[C@@H](CO)C2)c(=O)[nH]1 | D205 | PBMC | RT activity | EC50 |  | 9 µM
CCCCCCCC/C=C\CCCCCCCC(=O)Oc1ccc(COP(=O)(OCc2ccc(OC(=O)CCCCCCC/C=C\CCCCCCCC)cc2)OP(=O)(O)OC[C@@H]2C=C[C@H](n3cc(C)c(=O)[nH]c3=O)O2)cc1 | ROD | CEM/TK- | syncytia / microscopy | EC50 |  | 0.65 µM
CCOP(=O)(OCC)C(O)n1cc(-n2ccc(=O)[nH]c2=O)nn1 | ROD | CEM |  | inhibition | 100 µM | 0%
O=C(NCCc1ccccc1)Nc1nc(C(F)(F)F)cs1 |  | MT-4 | RT activity | inhibition | 10 µg/mL | 98%
CCOP(=O)(OCC)C(O)n1cc(N2C=CC(NC(C)=O)NC2=O)nn1 | ROD | CEM |  | inhibition | 100 µM | 0%
CC(=O)Nc1sc(Cl)cc1S(=O)(=O)c1ccccc1[N+](=O)[O-] | ROD | CEM + CEM/O | cytopathic effect / MTT | EC50 |  | >8 µg/mL
COc1ncnc(NS(=O)(=O)c2ccc(N=C3C(=O)N(CN4CCOCC4)c4ccccc43)cc2)c1OC | ROD | MT-4 | cytopathic effect / MTT | inhibition | 2 µg/mL | 16%
C[n+]1cn(-c2cn(C(O)CP(=O)(O)O)nn2)c(=O)[nH]c1=O | ROD | CEM |  | inhibition | 100 µM | 0%

Again, the opening 3 rows:

compound	strain	cells	method	read-out	dose	value
Clc1ccc(CSc2ccccn2)cc1	ROD	CEM	syncytia	EC50		≥0.8 µg/mL
O=C(Nc1sccc1S(=O)(=O)c1ccc(Cl)cc1)C(F)(F)F	ROD	CEM + CEM/O	cytopathic effect / MTT	EC50		>8 µg/mL
C[n+]1cn(-c2cn(CCP(=O)(O)O)nn2)c(=O)[nH]c1=O	ROD	CEM		inhibition	100 µM	0%